Results from patent publication US11802147B2, “High affinity monoclonal antibodies for detecting amanitins” (priority 2019, dated 2023).

Tests used:
[1] = system: mAbs of the instant disclosure; test: assays herein described using the mAbs, lower limit of detection; assay type: binding; settings: generally
mAb 9G3.2 = assay type: binding, mouse; settings: conservative estimate, 30% variation in signal
mAb AMA9G3 = assay type: binding, mouse; settings: lateral flow, either hapten as test line

| Compound | lower limit of detection (LOD) [1] | limit of detection (LOD), mAb 9G3.2 assay (mAb 9G3.2) [ng/mL] | limit of detection (mAb AMA9G3) |
| --- | --- | --- | --- |
| γ-amanitin | 1 ng/mL | 1 | around 1 ng/mL |
| CC[C@H](C)[C@@H]1NC(=O)CNC(=O)[C@@H]2Cc3c([nH]c4cc(O)ccc34)[S+]([O-])C[C@@H](NC(=O)CNC1=O)C(=O)N[C@@H](CC(N)=O)C(=O)N1C[C@H](O)C[C@H]1C(=O)N[C@@H]([C@@H](C)[C@@H](O)CO)C(=O)N2 (stereo in doubt) [α-amanitin] | about 1 ng/mL | 1 | around 1 ng/mL |
| β-amanitin | about 5 ng/mL |  | around 30 ng/mL |
